Pooled drug test results. Numbers come from NIAID ChemDB, via PubChem.

All rows: whole-cell or culture tests

MIC50, MIC90 and the like: level of inhibition, or share of isolates inhibited. Rows are shuffled and stem from different studies. Inhibition is in % at the dose shown (toxicity tests: loss of growth or viability). An empty or dashed field is not shown. ECn is the concentration giving n% inhibition of infection, replication or growth.

smiles	organism	strain	cell line	read by	measure	dose	value
O=S(=O)([O-])c1ccc(O)cc1	Herpes simplex virus	-	Human amnion AV3 cells	cytopathic effect	inhibition	10 µg/mL	10%
O=[N+]([O-])c1ccc(C=Nc2ccccc2O)cc1	Cryptococcus neoformans	ATCC 24067	-	broth dilution	MIC	-	8 µg/mL
Cc1cn([C@@H]2O[C@H](CO)[C@@H](O)[C@@H]2F)c(=O)nc1N	Varicella zoster virus	YS	HELF	plaque count	inhibition	0.1 µg/mL	100%
CCOC(=O)c1c(C)nc(NCCCCNc2ccnc3cc(Cl)ccc23)nc1-c1ccccc1	Cryptococcus neoformans	ATCC 28957	-	-	MIC99	-	1.4 µg/mL
O=S(=O)(O)c1cc(O)c2c(O)cc(S(=O)(=O)O)cc2c1	Adenovirus	TYPE 3	Human embryonic lung cells	cytopathic effect	inhibition	10 µg/mL	20%
C=CCc1ccc(OC)c(OC)c1	Candida albicans	2323	-	turbidity	MIC90	-	350 µg/mL
Oc1ccccc1N=Cc1ccc2c(c1)OCO2	Cryptococcus neoformans	28JF	-	-	MIC99	-	11.3 µg/mL
O=c1[nH]c(=O)n([C@@H]2O[C@H](CO)[C@@H](O)[C@@H]2O)cc1/C=C/Cl	Varicella zoster virus	HIRAI	HELF	plaque count	inhibition	0.01 µg/mL	100%
Nc1ccccc1S(=O)(=O)O	Adenovirus	TYPE 3	Human embryonic lung cells	cytopathic effect	inhibition	5 µg/mL	0%
CCC(CC)O[C@@H]1C=C(C(=O)O)C[C@H](N)[C@H]1NC(C)=O	Influenza A virus	H1N1 A/PR/8/34	MDCK	visual reading	EC50	-	0.35 µM
O=S(=O)([O-])c1ccccc1S(=O)(=O)[O-]	Rhinovirus	-	Human embryonic lung cells	cytopathic effect	inhibition	10 µg/mL	10%
CCc1cn([C@@H]2O[C@H](CO)[C@@H](O)[C@@H]2O)c(=O)[nH]c1=O	Varicella zoster virus	Asahikawa	HELF	plaque count	inhibition	1000 µg/mL	96%
CCOC(=O)c1c(C)nc(NCCCCNc2ccnc3cc(Cl)ccc23)nc1-c1ccc(F)cc1	Cryptococcus gattii	135L/03	-	-	MIC99	-	8 µg/mL
CCOC(=O)/C=C/[C@H](C[C@@H]1CCNC1=O)NC(=O)[C@@H](CC(=O)[C@@H](NC(=O)c1cc(C)on1)C(C)C)Cc1ccc(F)cc1	Rhinovirus	Isolate 1	OHIO HELA-I	cytopathic effect / visual reading	EC50	-	0.02 µg/mL
Oc1ccccc1N=Cc1ccc(O)c(O)c1O	Cryptococcus gattii	23/10993	-	-	MIC99	-	11.3 µg/mL
O=C(Nc1ccc2cc(S(=O)(=O)[O-])cc(S(=O)(=O)[O-])c2c1)c1ccccc1	Herpes simplex virus	-	Human conjunctiva cells	cytopathic effect	inhibition	5 µg/mL	0%
Cc1nc(NCCCCNc2ccnc3cc(Cl)ccc23)nc(-c2ccccc2[N+](=O)[O-])c1C(=O)OC(C)C	Cryptococcus neoformans	96806	-	-	MIC99	-	45.3 µg/mL
C=Cc1cn([C@@H]2O[C@H](CO)[C@@H](O)[C@@H]2O)c(=O)[nH]c1=O	Varicella zoster virus	HIRAI	HELF	plaque count	inhibition	0.1 µg/mL	71%
CCOC(=O)c1ccc(OCCC2CCN(c3ccc(C)nn3)CC2)cc1	Rhinovirus	Norman (ICAM-1 receptor group 5)	KB	neutral red	EC50	-	0.005 µM
Nc1nc2c(ncn2COCCO)c(=O)[nH]1	Varicella zoster virus	HIRAI	HELF	plaque count	inhibition	0.1 µg/mL	12%
Cc1ccc(C(=O)Nc2ccc(S(=O)(=O)O)c3cc(S(=O)(=O)O)cc(S(=O)(=O)O)c23)cc1NC(=O)c1cccc(NC(=O)Nc2cccc(C(=O)Nc3cc(C(=O)Nc4ccc(S(=O)(=O)O)c5cc(S(=O)(=O)O)cc(S(=O)(=O)O)c45)ccc3C)c2)c1	Rhinovirus	-	Human amnion AV3 cells	cytopathic effect	inhibition	10 µg/mL	40%

A second listing of 3 rows from above:

smiles,organism,strain,cell line,read by,measure,dose,value
C=Cc1cn([C@@H]2O[C@H](CO)[C@@H](O)[C@@H]2O)c(=O)[nH]c1=O,Varicella zoster virus,HIRAI,HELF,plaque count,inhibition,0.1 µg/mL,71%
CCOC(=O)c1ccc(OCCC2CCN(c3ccc(C)nn3)CC2)cc1,Rhinovirus,Norman (ICAM-1 receptor group 5),KB,neutral red,EC50,-,0.005 µM
Nc1ccccc1S(=O)(=O)O,Adenovirus,TYPE 3,Human embryonic lung cells,cytopathic effect,inhibition,5 µg/mL,0%